Results deposited as PubChem BioAssay AID624099 (ICCB-Longwood, 2012).

Test: 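Knock-downs relieving repression by E2 of an HPV18 LCR luciferase reporter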 (primary screen)
System: human C33A cervical carcinoma cells (HPV-negative) stably expressing BPV1 E2 and an HPV18 LCR luciferase reporter
Reagent: siRNA pool against human genes, 40 nM
Duration: 72 h
Detection: 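HPV18 LCR reporter light per well, converted to plate-wise z-scores that exclude control wells, and averaged over triplicate plates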
Scale: mean z-score and z-score: higher = stronger reporter signal, weaker E2 silencing
Active means: 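Mean z ≥ 2 together with z ≥ 2 in two or more of the three replicates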
The deposit covers about 21,000 reagents; below is a random part of them. 497 of them (2.4%) were called active. 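Higher z means weaker E2 silencing; only reporter increases were scored, and knock-downs that hurt cell survival may mask genuine repressor factors.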

Gene | PubChem SID | mean z-score | z-score, replicate A | z-score, replicate B | z-score, replicate C | call
COLGALT1 (collagen beta(1-O)galactosyltransferase 1) | SID134322033 | -0.82 | -1.3 | -0.87 | -0.28 | inactive
CFAP210 (cilia and flagella associated protein 210) | SID134327257 | 0.64 | 0.94 | 0.16 | 0.81 | inactive
PRR11 (proline rich 11) | SID134312142 | -1.17 | -0.96 | -1.29 | -1.26 | inactive
CPNE9 (copine family member 9) | SID134321512 | 0.68 | 0.98 | 0.26 | 0.81 | inactive
ASIC4 (acid sensing ion channel subunit family member 4) | SID134311527 | -1.84 | -2 | -1.71 | -1.81 | inactive
GAS2L1P2 (growth arrest specific 2 like 1 pseudogene 2) | SID134326478 | 0.94 | 1.16 | 0.72 | 0.93 | inactive
SLC2A3 | SID134312562 | 1.38 | 1.45 | 1.48 | 1.21 | inactive
PCDHB2 (protocadherin beta 2) | SID134317514 | 0.05 | 0.12 | -0.14 | 0.17 | inactive
FER1L6-AS2 (FER1L6 antisense RNA 2) | SID134322739 | -0.04 | -0.5 | 0.3 | 0.06 | inactive
FTH1P7 (ferritin heavy chain 1 pseudogene 7) | SID134328432 | -0.9 | -1.05 | -0.8 | -0.86 | inactive

Continued; the last 2 above are carried over.
Gene | PubChem SID | mean z-score | z-score, replicate A | z-score, replicate B | z-score, replicate C | call
FER1L6-AS2 (FER1L6 antisense RNA 2) | SID134322739 | -0.04 | -0.5 | 0.3 | 0.06 | inactive
FTH1P7 (ferritin heavy chain 1 pseudogene 7) | SID134328432 | -0.9 | -1.05 | -0.8 | -0.86 | inactive
STPG4 (sperm-tail PG-rich repeat containing 4) | SID134322038 | 0.41 | 0.77 | -0.05 | 0.52 | inactive
TMCO1 (transmembrane and coiled-coil domains 1) | SID134317966 | 1.21 | 0.85 | 1.34 | 1.45 | inactive
XKR8 (XK related 8) | SID134319771 | 1.45 | 1.51 | 1.6 | 1.23 | inactive
PRR34 (PRR34 long non-coding RNA) | SID134324263 | 0.64 | 0.48 | 0.22 | 1.21 | inactive
DNAI2 (dynein axonemal intermediate chain 2) | SID134318347 | 1.74 | 1.94 | 1.53 | 1.75 | inactive
NBPF12 (NBPF member 12) | SID134327002 | 0.98 | 0.26 | 1.34 | 1.34 | inactive
KCNG1 | SID134311646 | -0.06 | 0.45 | -0.44 | -0.18 | inactive
RNF150 (ring finger protein 150) | SID134315205 | 0.18 | 0.1 | 0.45 | -0.02 | inactive
RUNDC1 (RUN domain containing 1) | SID134321649 | -0.29 | -0.48 | -0.13 | -0.26 | inactive
POU3F2 (POU class 3 homeobox 2) | SID134323776 | 1.91 | 1.96 | 2.03 | 1.75 | inactive
PLEKHA1 (pleckstrin homology domain containing A1) | SID134321931 | 0.91 | 1.09 | 0.92 | 0.72 | inactive
MARCO (macrophage receptor with collagenous structure) | SID134312957 | 0.05 | -0.13 | -0.19 | 0.48 | inactive
NAGLU (N-acetyl-alpha-glucosaminidase) | SID134316807 | 0.44 | 0.46 | 0.53 | 0.34 | inactive
